Data taken from publication PMC11703096 (PLOS ONE, 2025).

Test system: Nc1ncnc2c1ncn2[C@@H]1O[C@H](COP(=O)(O)OP(=O)(O)OP(=O)(O)O)[C@@H](O)[C@H]1O
Experiment: purified protein
Conditions: pH 7.5; 37.0 °C

(Vaccinia virus WR)
Km: 0.74 µM
